Here are results for 4 molecules from US9642889B2, “Macrocyclic inhibitors of Flaviviridae viruses” (Selcia Limited, priority 2012, dated 2017).

Chains of the proteins cited; added tags and fusions are not shown.
UniProt P62937, whole entry: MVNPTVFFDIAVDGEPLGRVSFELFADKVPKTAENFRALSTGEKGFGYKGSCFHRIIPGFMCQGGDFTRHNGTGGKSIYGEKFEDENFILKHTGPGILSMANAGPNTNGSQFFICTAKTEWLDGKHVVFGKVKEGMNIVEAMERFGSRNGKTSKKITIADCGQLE

Test [1] deals with Huh-7 HCV replicon cells (1b replicon). In words: anti-HCV activity in Huh-7 cell line harboring a HCV replicon (luciferase readout). Type of test: cell-based.
Another test concerns the target cyclophilin A (Homo sapiens, UniProt P62937). In words: Cyclophilin A TR-FRET competitive binding assay. The settings on record: read-out: TR-FRET IC50; competition with CsA-Cy5 for His-tagged CypA, two-hour incubation.
Where [2] appears, read: inhibition of viral replication, Huh-7 HCV replicon cells, 3 days.

Molecules are shown by their SMILES. Read-outs that look alike come from different tables or passages of the source. Where only a bound is given, the exact number is not on record here.

With `CC(C)[C@@H]1OC(=O)[C@H](CCC2(C)OCCO2)C/C=C/c2cc3cc(ccc3cn2)[C@@H](C)NC(=O)[C@@H]2CCCN(N2)C(=O)[C@H](C)NC1=O`, in test [1], the EC50 – broadly, the concentration giving half of the maximal effect – is < 1000 nM and the “Replicon 1b % inhibition at 1 μM” value worked out at 100%. For the same molecule, at cyclophilin A, the IC50 (as a rule, the point on the concentration scale where inhibition reaches its midpoint) was < 100 nM.
With `COCC1NC(=O)[C@H](C(C)C)OC(=O)C(C)(C)/C=C/c2ccc3ccc(nc3c2)[C@@H](C)NC(=O)[C@@H]2CCCN(N2)C1=O` (single isomer, unassigned), the “Replicon 1b % inhibition at 1 μM” value in test [1] (1b replicon, 1 μM compound) turned out to be 99%. For the same molecule, the EC50 in test [1] (setting [2]) is < 1000 nM. For the same molecule, at cyclophilin A, the 50% inhibitory concentration (IC50) is < 100 nM.
Turning to `CC(C)[C@@H]1OC(=O)C2(/C=C/c3ccc4ccc(nc4c3)[C@@H](C)NC(=O)[C@@H]3CCCN(N3)C(=O)[C@H](C)NC1=O)COCCO2` (single isomer, unassigned) [Compound 43], the “Replicon 1b % inhibition at 1 μM” value in test [1] (1b replicon, 1 μM compound) was determined as 86%. For the same molecule, the 50% effective concentration (EC50) in test [1] (setting [2]) was < 1000 nM. Further, the IC50 on cyclophilin A lay in the range of 101 to 1000 nM.
In the same order, the values of `CC(C)[C@@H]1OC(=O)C2(/C=C/c3ccc4ccc(nc4c3)[C@@H](C)NC(=O)[C@@H]3CCCN(N3)C(=O)[C@H](C)NC1=O)COC(C)(C)CO2` (single isomer, unassigned) [Compound 100] are 98%, < 1000 nM and < 100 nM.
